Measured values from several laboratories, pooled; numbers as filed in NIAID ChemDB.

Common to all: growth or infection tests; organism: Mycobacterium tuberculosis

MIC50, MIC90 and the like: level of inhibition, or share of isolates inhibited. Percent inhibition refers to the dose given; in toxicity tests it is the harm to the cells. Neighbouring rows are from separate reports. MIC bound comes from a single tested concentration. Blank or dashed fields: not listed here. ECn is the concentration giving n% inhibition of infection, replication or growth. Fold resistance: result on the changed form divided by that on wild type.

| smiles | read by | endpoint | tested at | setting | strain | mutations | result |
|---|---|---|---|---|---|---|---|
| Cc1ccc(S(=O)(=O)OC2C3COC(O3)C3OC(C)(C)OC23)cc1 | BACTEC | MIC bound | - | - | H37Rv | - | >12.5 µg/mL |
| CC1COc2c(N3CCN(Cc4ccc5c(c4)OCO5)CC3)c(F)c([N+](=O)[O-])c3c(=O)c(C(=O)O)cn1c23 | agar | MIC99 | - | - | MDR-TB | - | 5.95 µM |
| C[C@]1(COc2ccc(-n3cc(COc4ccc(OC(F)(F)F)cc4)nn3)cc2)Cn2cc([N+](=O)[O-])nc2O1 | visual reading / absorbance | MIC100 | - | - | H37Rv | - | 0.12 µg/mL |
| O=C(N/N=C/c1cccc(F)c1)c1ccncc1 | - | MIC | - | - | H37Rv (ciprofloxacin-resistant) | - | 4 µg/mL |
| O=C(N=Nc1c(O)[nH]c2ccc(S(=O)(=O)O)cc12)c1ccc(-n2cc(-c3ccccc3)nn2)cc1O.[Na+] | resazurin | MIC | - | - | H37Rv | - | >25 µg/mL |
| NNC(=O)c1cc2ccccc2[nH]1 | BACTEC | inhibition | 12.5 µg/mL | - | H37Rv | - | 15% |
| COc1ccc(C2OC(c3ccncc3)=NN2C)cc1F | - | MIC | - | - | 16PI | - | >20 µg/mL |
| CCc1nc2ccc(C)cc2n1CCCCOc1ccccc1 | turbidity / fluorescence | MIC90 | - | - | H37Rv-MA | - | 0.78 µM |
| C[C@H]1COc2c(N3CCC4(CC3)OCCO4)c(F)c(N)c3c(=O)c(C(=O)O)cn1c23 | agar | MIC99 | - | - | - | - | 3.72 µM |
| CCc1nc2ccccc2n1CCCCOc1ccc(C)c(C)c1 | turbidity / fluorescence | fold resistance | - | - | H37Rv | QcrB M342T | >20 |
| O=C1c2ccccc2C(=O)c2c(NCCOCCO)ccc(NCCOCCO)c21 | BACTEC | inhibition | 12.5 µg/mL | - | H37Rv | - | 49% |
| CCCSc1nnnn1-c1ccc(C)c(C)c1 | - | MIC | - | - | H37Rv | - | 125 µM |
| C[C@]1(COc2ccc(N3CCC(Oc4ccc(OC(F)(F)F)cc4)CC3)cc2)Cn2cc([N+](=O)[O-])nc2O1 | visual reading / absorbance | MIC100 | - | - | H37Rv | - | 0.007 µg/mL |
| COc1ccc(C2OC(c3ccncc3)=NN2C)c(OC)c1 | - | MIC | - | - | 6 PI | - | >20 µg/mL |
| Cc1cn(COCCO)c(=O)[nH]c1=O | - | EC50 | - | - | H37Ra | - | >100 µg/mL |
| O=C(NN=Cc1ccccc1O)c1ccc(-n2cc(-c3ccccc3)nn2)cc1O | resazurin | MIC | - | - | H37Rv | - | 12.5 µg/mL |
| CCc1cn(COCCO)c(=O)[nH]c1=O | - | EC50 | - | - | H37Ra | - | >100 µg/mL |
| Cc1ccc(NC(=S)NNC(=O)c2cc(-c3cc(F)cc(F)c3)ccc2O)cc1 | BACTEC | inhibition | 6.25 µg/mL | - | H37Rv | - | <90% |
| CCc1nc2ccc(C)cc2n1CCCNc1ccccc1 | turbidity / fluorescence | MIC90 | - | - | H37Rv | WT | 0.1 µM |
| CC[C@H](/C=C/[C@@H](C)[C@H]1CC[C@H]2[C@@H]3CC=C4C[C@@H](O)CC[C@]4(C)[C@H]3CC[C@]12C)C(C)C | - | MIC | - | - | H37Rv | - | 32 µg/mL |
| O=[n+]1c2ccccc2n([O-])c2ccccc21.[Cl][Cu][Cl] | - | MIC | - | - | CS-R | - | 0.8 µg/mL |
| CN1N=C(c2ccncc2)OC1c1ccccc1 | - | MIC | - | - | H37Rv | - | >20 µg/mL |
| CC(NNC(=O)c1ccncc1)c1ccc(F)cc1 | - | MBC | - | - | Isoniazid-resistant | - | >50 µg/mL |
| NNC(=O)c1ccncc1 | resazurin | MIC | - | - | H37Rv | - | 25 µg/mL |
| CO[C@H]1/C=C/O[C@@]2(C)Oc3c(C)c(O)c4c(O)c(c(/C=N/N5CCN(C)CC5)c(O)c4c3C2=O)NC(=O)/C(C)=C\C=C\[C@H](C)[C@H](O)[C@@H](C)[C@@H](O)[C@@H](C)[C@H](OC(C)=O)[C@@H]1C | turbidity / fluorescence | MIC90 | - | - | H37Rv-LP | - | 0.008 µM |
| C/C(=N\NC(=O)c1ccncc1)c1ccccc1 | - | MIC | - | - | H37Rv (ethambutol-resistant) | - | 2 µg/mL |
| CN1N=C(c2ccncc2)OC1c1ccc(Cl)cc1Cl | - | MIC | - | - | H37Rv | - | >5 µg/mL |
| NC(CCSS(=O)(=O)O)=NCC(c1ccccc1)c1ccccc1 | BACTEC | MIC bound | - | - | H37Rv | - | >12.5 µg/mL |
| CCCCSc1nnnn1-c1ccc(C)cc1 | - | MIC | - | - | H37Rv | - | 61 µM |
| CCN1C(=O)CS/C1=N/NC(=O)c1cc(-c2cc(F)cc(F)c2)ccc1O | BACTEC | inhibition | 6.25 µg/mL | - | H37Rv | - | <90% |
| CCc1nc2ccccc2n1CCSc1nnc(-c2ccc(Cl)cc2)o1 | turbidity / fluorescence | MIC99 | - | - | H37Rv | - | >20 µM |
| CCOC(=O)CN1C(=S)N(c2ccc(C)cc2)C(=Nc2ccc(C)cc2)C1=Nc1ccc(C)cc1 | BACTEC | inhibition | 12.5 µg/mL | - | H37Rv | - | 0% |
| COc1nc2ccc(Br)cc2cc1[C@@H](c1ccccc1)[C@@](O)(CCN(C)C)c1cccc2ccccc12 | turbidity / fluorescence | MIC90 | - | - | H37Rv-MA | - | 0.7 µM |
| CC1(C)S[C@@H]2[C@H](NC(=O)[C@H](N)c3ccccc3)C(=O)N2[C@H]1C(=O)O | fluorescence | MIC | - | - | H37Rv | - | >80 µg/mL |
| CCC(C)C(C1=C(O)c2ccccc2C(=O)C1=O)C1=C(O)c2ccccc2C(=O)C1=O | BACTEC | MIC bound | - | - | H37Rv | - | >12.8 µg/mL |
| O=c1[nH]c(=O)n(COCCO)cc1[N+](=O)[O-] | - | EC50 | - | - | H37Ra | - | >100 µg/mL |
| C[C@@H](O)[C@@]1(C)C(=O)N2C(C(=O)O)=C(SCCN=CN)C[C@@]21C | fluorescence | MIC | - | - | H37Rv | - | 2.5 µg/mL |
| Cc1nc(-c2ccccc2)oc1C(N)=O | BACTEC | MIC bound | - | - | H37Rv | - | >12.5 µg/mL |
| Cc1ccc(C2SCC(=O)N2NC(=O)c2cc(-c3cc(F)cc(F)c3)ccc2O)cc1 | BACTEC | inhibition | 6.25 µg/mL | - | H37Rv | - | <90% |
| CC1COc2c(N3CCSCC3)c(F)c([N+](=O)[O-])c3c(=O)c(C(=O)O)cn1c23 | agar | MIC99 | - | - | - | - | 1.91 µM |
| CNC(=S)NNC(=O)c1cc(-c2cc(F)cc(F)c2)ccc1O | BACTEC | inhibition | 6.25 µg/mL | - | H37Rv | - | <90% |
| C/C(=N\NC(=S)N1CC(C)OC(C)C1)c1cnccn1 | BACTEC | MIC bound | - | - | H37Rv | - | >12.5 µg/mL |
| NNC(=O)c1ccc(-n2cc(-c3ccccc3)nn2)cc1O | resazurin | MIC | - | - | H37Rv | - | 12.5 µg/mL |
| C[n+]1cc2c(cn3c4ccccc4ccc23)c2ccccc21.[I-] | resazurin / visual reading | MIC | - | - | H37Rv | - | 6.2 µg/mL |
| O=C(NN=Cc1cccc(Cl)c1)c1ccc(-n2cc(-c3ccccc3)nn2)cc1O | resazurin | MIC | - | - | H37Rv | - | 12.5 µg/mL |
| [N-]=[N+]=NC(CI)c1cn(COC(CO)CO)c(=O)[nH]c1=O | - | EC50 | - | - | H37Ra | - | >100 µg/mL |
| CC1=NN(c2ccc(Cl)cc2S(=O)(=O)[O-])C(=O)C1N=Nc1ccc(OS(=O)(=O)c2ccc(C)cc2)cc1.[Na+] | BACTEC | inhibition | 12.8 µg/mL | - | H37Rv | - | 19% |
| CC(=O)O[C@H]1C[C@H]2[C@]3(C)CCC4C(C)(C)CCC[C@]4(C)[C@H]3C[C@@H](O)[C@]2(C)C2OC(=O)C=C21 | BACTEC | EC50 | - | - | H37Rv (ATCC 27294) | - | >12.5 µg/mL |
| Cc1ccc(-n2nnnc2SC(C)C)cc1 | - | MIC | - | - | H37Rv | - | 250 µM |
| CCOC(=O)C(C)c1nc2cc(N3CCN(C)CC3)c(F)cc2[nH]c1=O | resazurin | inhibition | 6.25 µg/mL | - | H37Rv | - | 47% |
| CCc1nc2ccccc2n1CCCCSc1nc(-c2ccccc2)cs1 | turbidity / fluorescence | MIC90 | - | - | H37Rv-MA | - | 5.3 µM |
| O=[N+]([O-])c1ccc(N=NNc2ccc([N+](=O)[O-])cc2Cl)c(Cl)c1 | luminescence | EC50 | - | - | H37Ra-lux | - | 1.27 µM |
| C[C@@H](O)[C@H]1C(=O)N2C(C(=O)O)=C([C@H]3CCCO3)S[C@H]12 | fluorescence | MIC | - | - | H37Rv | - | 1.3 µg/mL |
| C=CCOc1cc(NC(=S)c2ccoc2C)ccc1OC | BACTEC | inhibition | 12.5 µg/mL | - | H37Rv | - | 18% |
| CCc1nc2ccc(C)cc2n1CCCCNc1ccc(OC)cc1 | turbidity / fluorescence | MIC99 | - | - | H37Rv | - | 0.65 µM |
| CC(C)=CCNc1ncnc2c1c(C#N)cn2[C@@H]1O[C@H](CO)[C@@H](O)[C@H]1O | resazurin | MIC bound | - | - | H37Rv | - | >6.25 µg/mL |
| O=C(NNCc1ccccc1)c1ccncc1 | - | MIC | - | - | H37Rv | - | 0.2 µg/mL |
| [N-]=[N+]=NC(CCl)c1cn(COCCO)c(=O)[nH]c1=O | - | EC50 | - | - | H37Ra | - | 10 µg/mL |
| C/C(=N\Nc1ccc([N+](=O)[O-])cn1)C(=O)O | BACTEC | MIC bound | - | - | H37Rv | - | >12.5 µg/mL |
| C/C=C/C1=CC=C/C(=C2\C(=O)CNC2=O)O1 | resazurin / visual reading | MIC | - | - | H37Rv | Ethionamide-resistant | 3.1 µg/mL |
| C[C@H](O)[C@H]1C(=O)N2C(C(=O)O)=C(S[C@@H]3CN[C@H](C(=O)N(C)C)C3)[C@H](C)[C@H]12 | fluorescence | MIC | - | - | H37Rv | - | 2.5 µg/mL |
| COc1cc(-c2nn3c(C(F)(F)F)nnc3s2)cc(OC)c1OC | resazurin | MIC | - | - | 18b | - | 16 µg/mL |
| CCCCOC(=O)C(CC(C)C)NC(=O)C(CC(C)C)NC(=O)C1CCCN1 | resazurin | MIC bound | - | - | H37Rv | - | >6.25 µg/mL |
| CCCCSc1nnnn1-c1c(C)cc(C)cc1C | - | MIC | - | - | H37Rv | - | >1000 µM |
| O=c1[nH]c(=O)n(COC(CO)CO)cc1I | - | EC50 | - | - | H37Ra | - | >100 µg/mL |
| C=Cc1ccccc1C=NNC(=O)c1ccc(-n2cc(-c3ccccc3)nn2)cc1O | resazurin | MIC | - | - | H37Rv | - | 25 µg/mL |
| O=C1CC(c2ccc(O)cc2)Oc2cc(O)c(Oc3ccc(-c4cc(=O)c5c(O)cc(O)cc5o4)cc3)c(O)c21 | - | inhibition | 12.5 µg/mL | - | - | - | 0% |
| COc1ccc(N=Nc2c(-c3ccccc3)nn(C(=S)S)c2-c2ccccc2)cc1 | BACTEC | inhibition | 128 µg/mL | - | H37Rv | - | 100% |
| O=C(N=Nc1c(O)[nH]c2ccc(OC(F)(F)F)cc12)c1ccc(-n2cc(-c3ccccc3)nn2)cc1O | resazurin | MIC | - | - | H37Rv | - | >25 µg/mL |
| NCCNC(=S)S | BACTEC | MIC | - | - | H37Rv | - | 32 µg/mL |
| CCSc1nnnn1-c1ccc(C)c(C)c1 | - | MIC | - | - | H37Rv | - | 250 µM |
| C=C(C)/C=C/[C@]12C[C@H](C)C3CC[C@](C)(C#N)[C@@H](CC[C@H]1C)[C@@H]32 | resazurin | MIC100 | - | - | H37Rv | - | 8 µg/mL |
| S=C(S)Nc1ccc(Cl)cc1 | - | MIC | - | - | INH-r | - | 6.3 µg/mL |
| C=Cc1cn(COC(CO)CO)c(=O)[nH]c1=O | - | EC50 | - | - | H37Ra | - | >100 µg/mL |
| S=C(S)NCCN1CCNCC1 | BACTEC | MIC bound | - | - | H37Rv | - | >12.5 µg/mL |
| CCCCCCCCCCC#Cc1cn(COC(CO)CO)c(=O)[nH]c1=O | - | EC50 | - | - | H37Ra | - | 10 µg/mL |
| O=C(N/N=C/c1ccccc1F)c1ccncc1 | - | MIC | - | - | Erdman | - | 0.05 µg/mL |
| COc1ccc(OC)c(C=NNC(=O)c2ccc(-n3cc(-c4ccccc4)nn3)cc2O)c1 | resazurin | MIC | - | - | H37Rv | - | 1.56 µg/mL |
| C/C(=N\NC(=O)c1ccncc1)c1ccc(F)cc1 | - | MIC | - | - | H37Rv | - | 0.05 µg/mL |
| C[n+]1cc2c(cn3c4ccccc4ccc23)c2ccccc21 | resazurin / visual reading | MIC | - | - | H37Rv | - | 6.2 µg/mL |
| Nc1ccc(C(=O)O)c(O)c1 | - | EC50 | - | - | 7800 | - | <0.76 µM |
| COc1c(O)c(OC)c2oc(-c3ccc(O)cc3)cc(=O)c2c1O | - | MIC | - | - | H37Ra | - | 100 µg/mL |
| CNC(=O)CCC(C)[C@H]1CCC2C3C(C[C@H](OC(C)=O)[C@@]21C)[C@@]1(C)CCC2(C[C@H]1C[C@H]3OC(C)=O)OOC1(CCC(c3ccccc3)CC1)OO2 | - | MIC | - | - | - | - | >6.25 µg/mL |
| O=C1OC(=O)C2C3OC(C(Cl)C3Cl)C12 | BACTEC | MIC bound | - | - | H37Rv | - | >12.5 µg/mL |
| CC(C)=CCCC(C)[C@H]1CC[C@@]2(C)C3CCC4C(C)(C)[C@@H](O)CCC45CC35CC[C@]12C | - | MIC | - | - | H37Rv | - | >64 µg/mL |
| CC1COc2c(N3CCC4(CC3)OCCO4)c(F)c([N+](=O)[O-])c3c(=O)c(C(=O)O)cn1c23 | agar | MIC99 | - | - | MDR-TB | - | 0.09 µM |
| COc1c(N2CCNC(C)C2)c(F)cc2c(=O)c(C(=O)O)cn(C3CC3)c12 | agar | MIC | - | - | MDR-TB | - | 8.34 µM |
| NNC(=O)c1ccncc1 | broth dilution | MIC | - | 21 d | H37Rv | - | 1 µM |
| C[C@H]1COc2c(N3CCN(C)CC3)c(F)cc3c(=O)c(C(=O)O)cn1c23 | - | MIC | - | - | - | - | 2 µg/mL |